Measured values published in patent US20150023988A1.
Several values for one entry are separate records, joined by “and”; a condition that tells them apart may be missing. Equal entries are not always repeated.

Tests used:
Assay in all cases: cell-based or functional assay
[1] = target: TTX-sensitive Nav channels in mouse DRG neurons
[2] = target: human voltage-gated sodium channel Nav1.4 (human) (UniProt P35499)
[3] = target: human voltage-gated sodium channel Nav1.5 (human) (UniProt Q14524)
[4] = target: human voltage-gated sodium channel Nav1.7 (human) (UniProt Q15858)
[5] = target: human voltage-gated sodium channel Nav1.3 (human), Q9NY46
[6] = target: human voltage-gated sodium channel Nav1.4 (human), P35499
[7] = target: human voltage-gated sodium channel Nav1.5 (human), Q14524
[8] = target: human voltage-gated sodium channel Nav1.7 (human), Q15858

[Glu20, Trp29]JzTx-V(1-29) (peptide; modification not given)
1.x/1.7, partially inactivated [1]: 1210 fold and 917 fold

Pra-[Nle6]JzTx-V(1-29) (peptide; modification not given)
1.x/1.7, partially inactivated [1]: 6340 fold
PX hNav1.4 Tonic IC50 [2]: 0.004 µM and 0.0025 µM
PX hNav1.5 Tonic IC50 [3]: 0.97 µM and 0.7 µM
IC50 (IonWorks Quattro) [4]: 0.008 µM

YCQKWVWTCDSKRACCEGLECKLWCRKII (modifications not checked) [[Nva6;Glu20]JzTx-V(1-29)]
IC50 (IonWorks Quattro) [5]: > 5 µM
IC50 (IonWorks Quattro) [6]: > 5 µM
Nav1.4/Nav1.7 (ratio of IC50s) [6]: 7
IC50 (IonWorks Quattro) [7]: 9.2 µM
IC50 (IonWorks Quattro) [8]: 0.69 µM

YCQKFMWTCDSKRACCEGLECKLWCRKYI (modifications not checked) [[Phe5;Glu20;Tyr28]JzTx-V(1-29)]
IC50 (IonWorks Quattro) [5]: > 5 µM
IC50 (IonWorks Quattro) [6]: > 5 µM
IC50 (IonWorks Quattro) [7]: > 5 µM

YCQKYMWTCDSKRACCEGLECKLWCRKYI (modifications not checked) [[Tyr5,28;Glu20]JzTx-V(1-29)]
IC50 (IonWorks Quattro) [5]: > 5 µM
IC50 (IonWorks Quattro) [6]: > 5 µM
IC50 (IonWorks Quattro) [7]: > 5 µM

YCQKVMWTCDSKRACCEGLECKLWCRKYI (modifications not checked) [[Val5;Glu20;Tyr28]JzTx-V(1-29)]
IC50 (IonWorks Quattro) [5]: > 5 µM
IC50 (IonWorks Quattro) [6]: > 5 µM
IC50 (IonWorks Quattro) [7]: > 5 µM

YCQKLMWTCDSKRACCEGLECKLWCRKYI (modifications not checked) [[Leu5;Glu20;Tyr28]JzTx-V(1-29)]
IC50 (IonWorks Quattro) [5]: > 5 µM
IC50 (IonWorks Quattro) [6]: > 5 µM
IC50 (IonWorks Quattro) [7]: > 5 µM
IC50 (IonWorks Quattro) [8]: > 5 µM

YCQKVMWTCDSKRACCEGLECKLWCRKYI (modifications not checked) [[Nva5;Glu20;Tyr28]JzTx-V(1-29)]
IC50 (IonWorks Quattro) [5]: > 5 µM
IC50 (IonWorks Quattro) [6]: > 5 µM
IC50 (IonWorks Quattro) [7]: > 5 µM

YCQKKMWTCDSKRACCEGLECKLWCRKYI (modifications not checked) [[Lys5;Glu20;Tyr28]JzTx-V(1-29)]
IC50 (IonWorks Quattro) [5]: > 5 µM
IC50 (IonWorks Quattro) [6]: > 5 µM
IC50 (IonWorks Quattro) [7]: > 5 µM
IC50 (IonWorks Quattro) [8]: > 5 µM

YCQKNMWTCDSKRACCEGLECKLWCRKYI (modifications not checked) [[Asn5;Glu20;Tyr28]JzTx-V(1-29)]
IC50 (IonWorks Quattro) [5]: > 5 µM
IC50 (IonWorks Quattro) [6]: > 5 µM
IC50 (IonWorks Quattro) [7]: > 5 µM
IC50 (IonWorks Quattro) [8]: > 5 µM

YCQKEMWTCDSKRACCEGLECKLWCRKYI (modifications not checked) [[Glu5,20;Tyr28]JzTx-V(1-29)]
IC50 (IonWorks Quattro) [5]: > 7 µM
IC50 (IonWorks Quattro) [6]: > 7 µM
IC50 (IonWorks Quattro) [7]: > 7 µM
IC50 (IonWorks Quattro) [8]: > 7 µM

YCQKWMKTCDSKRACCEGLECKLWCRKYI (modifications not checked) [[Lys7;Glu20;Tyr28]JzTx-V(1-29)]
IC50 (IonWorks Quattro) [5]: > 7 µM
IC50 (IonWorks Quattro) [6]: > 7 µM
IC50 (IonWorks Quattro) [7]: > 7 µM

YCQKWMNTCDSKRACCEGLECKLWCRKYI (modifications not checked) [[Asn7;Glu20;Tyr28]JzTx-V(1-29)]
IC50 (IonWorks Quattro) [5]: > 7 µM
Nav1.4/Nav1.7 (ratio of IC50s) [6]: 1
IC50 (IonWorks Quattro) [7]: > 7 µM
IC50 (IonWorks Quattro) [8]: 5 µM

YCQKWMSTCDSKRACCEGLECKLWCRKYI (modifications not checked) [[Ser7;Glu20;Tyr28]JzTx-V(1-29)]
IC50 (IonWorks Quattro) [5]: > 7 µM
IC50 (IonWorks Quattro) [6]: > 7 µM
IC50 (IonWorks Quattro) [7]: > 7 µM

YCQKWMETCDSKRACCEGLECKLWCRKYI (modifications not checked) [[Glu7,20;Tyr28]JzTx-V(1-29)]
IC50 (IonWorks Quattro) [5]: > 7 µM
IC50 (IonWorks Quattro) [6]: > 7 µM
IC50 (IonWorks Quattro) [7]: > 7 µM
IC50 (IonWorks Quattro) [8]: > 7 µM

YCQKWMWTCDSKRACCAGLECKLWCRKII (modifications not checked) [[Atz(NPEG10)17;Glu20]JzTx-V(1-29)]
IC50 (IonWorks Quattro) [5]: > 5 µM
IC50 (IonWorks Quattro) [6]: > 5 µM
Nav1.4/Nav1.7 (ratio of IC50s) [6]: 28

YCQKWLWTCDSKRACCEGLRCALWCRKII (modifications not checked) [[Nle6;Atz(NPEG10)22]JzTx-V(1-29)]
IC50 (IonWorks Quattro) [5]: > 7 µM
IC50 (IonWorks Quattro) [6]: > 7 µM
IC50 (IonWorks Quattro) [7]: > 7 µM
IC50 (IonWorks Quattro) [8]: > 7 µM

YCQKWLWTCDSKRGCCEGLRCKLWCRKII (modifications not checked) [[Nle6,Pra14]JzTx-V(1-29)]
IC50 (IonWorks Quattro) [5]: 0.06 µM
IC50 (IonWorks Quattro) [6]: 0.09 µM
Nav1.4/Nav1.7 (ratio of IC50s) [6]: 1
IC50 (IonWorks Quattro) [7]: > 7 µM
IC50 (IonWorks Quattro) [8]: 0.07 µM
